IC50 data for three compounds are collected here from patent US7119073B2, “Peptides and their use as inhibitors of hepatitis C virus ns3 protease” (Istituto Di Ricerche Di Biologia Molecolare P. Angeletti SpA, priority 2001, dated 2006).

By UniProt entry, the sequences of proteins in these tests, tags left out. Where a name states a change or a piece, a line headed by the entry shows the natural chain unless it says otherwise. Residues count along the entry.
UniProt P26663, 1027-1206 limits assumed: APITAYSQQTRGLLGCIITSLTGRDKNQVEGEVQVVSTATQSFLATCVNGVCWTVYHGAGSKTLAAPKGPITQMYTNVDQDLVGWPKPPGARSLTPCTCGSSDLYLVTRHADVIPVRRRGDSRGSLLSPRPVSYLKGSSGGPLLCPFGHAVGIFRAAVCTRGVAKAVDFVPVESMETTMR

The target of the assay is NS3 protease domain complexed to a modified form of the NS4A peptide (Pep4AK) (Hepatitis C virus genotype 1b, UniProt P26663). In words: HCV NS3 protease domain/NS4A cofactor peptide assay (Assay B). The source says: HCV NS3 Protease Domain/ NS4A Cofactor Peptide Assay (Assay B)
(Steinkühler, C., Biasiol, G., Brunetti, M., Urbani, A., Koch, U., Cortese, R., Pessi, A., and De Francesco, R. Product inhibition of the hepatitis C virus NS3 protease. Biochemistry 37, 8899–8905, 1998)
In this assay the NS3 protease domain (residues 1027–1206 of the HCV polyprotein) complexed to a modified form of the NS4A peptide, spanning residues 21–34 of the NS4A cofactor in addition to a solubilizing lys-tag, Pep 4AK were used. As substrate, peptide 4AB based on the sequence of the NS4A/NS4B cleavage site of the HCV polyprotein, was added.
Cleavage assays were performed in 60 μl 50 mM Hepes pH7.5, 1% (w/v) CHAPS, 15% (v/v) glycerol, 10 mM DTT (buffer A), containing 80 μM Pep4AK. Buffer solutions were preincubated for 10 min with 10–200 nM protease and reactions were started by addition of 10 μM substrate. Six duplicate data points at different substrate concentrations were used to calculate kinetic parameters. Incubation times were chosen in order to obtain <7% substrate conversion and reactions were stopped by addition of 40 μl 1% TFA. Reactions were analysed by HPLC essentially as described above. The fluorescence detector was set to monitor tyrosine fluorescence of substrate and cleavage product (λex=260 nm, λem=305 nm).

Setting [1] is: read-out: Assay B (IC50 class), NS3 protease domain/NS4A cofactor peptide assay.

Read-outs that look alike come from different tables or passages of the source.

For the compound `CC(C)C[C@H](NC(=O)C1(Cc2ccsc2C(=O)O)Cc2ccccc2N1)C(=O)N[C@@H](CS)C(=O)NCCc1ccc(C(=O)O)cc1` (stereo partly drawn), the IC50 under setting [1] was < 100 µM.

As to `CC(=O)N[C@H](C(=O)N[C@@H](CCC(=O)O)C(=O)N[C@@H](CC1CCCCC1)C(=O)N[C@@H](CS)C(=O)NCCc1ccccc1)C(c1ccccc1)c1ccccc1`, where the note is “read-out: Assay B, Table 3, NS3 protease domain/Pep4AK”, the IC50 was < 100 µM.

As for `CC(C)C[C@H](NC(=O)C1(Cc2ccsc2C(=O)O)Cc2ccccc2N1)C(=O)N[C@@H](CC(F)F)C(=O)NCCc1c(F)cc(C(=O)O)cc1F` (single isomer, unassigned) [Compound 708b], the IC50 under setting [1] is < 100 µM.
